Measured values from several laboratories, pooled; numbers as filed in NIAID ChemDB.

All rows: tests in culture; agent: Hepatitis C virus; cells: Huh7; endpoint: EC50

An empty or dashed field is not shown.

smiles | strain or isolate | method | result
CC(C)(C)OC(=O)N(c1ccncc1)c1nc(-c2cc(Cl)ccc2F)nc2ncccc12 |  | replicon | 0.13 µM
CCCCCCCC(=O)CCCCCC/C=C/[C@H](C(=O)N[C@@H](Cc1ccc(-c2cccc(OC)n2)cc1)C(=O)O)[C@@](O)(CC(=O)O)C(=O)O |  | replicon | 0.002 µM
N#Cc1ccc(S(=O)(=O)Oc2ccccc2/C=N/NC(=O)Cc2ccccc2)cc1 |  | replicon | 5–50 µM
Cc1ccccc1Nc1s[nH]c(=O)c1C#N |  | replicon | 10–50 µM
CC(C)(C)C(=O)Nc1ccc(-c2cnc3nc(N)nc(N4CCOCC4)c3n2)cc1 |  |  | 1–10 µM
N#Cc1c(Nc2ccc(S(=O)(=O)Nc3ccccc3)cc2)s[nH]c1=O |  | replicon | >50 µM
COc1ccccc1CC(=O)N/N=C/c1ccccc1OS(=O)(=O)c1ccc(C(F)(F)F)cc1 |  | replicon | 5–50 µM
C=C[C@@H]1CC1(NC(=O)[C@@H]1C[C@@H](Oc2ccnc3cc(OC)ccc23)CN1C(=O)[C@@H](NC(=O)[C@@H](NC(C)=O)C1CCCCC1)C(C)C)C(=O)O |  | replicon | >5 µM
Nc1nc(N2CCOCC2)c2nc(-c3ccccc3Cl)cnc2n1 |  |  | 0.3–1 µM
N#Cc1cccc(Nc2s[nH]c(=O)c2C#N)c1 |  | replicon | 1–10 µM
CC1(C)CCc2c(C(=O)Oc3ccccc3)c(O)c3ccccc3c2O1 | GT1b | PCR | 5 µg/mL
COc1ccc(-c2nc(NC(=O)C(C)c3ccccc3)[nH]c2C)cc1S(C)(=O)=O | JFH-1 | luciferase | 0.805 µM
Nc1nc(N2CCOCC2)c2nc(-c3ccc(OC(F)(F)F)cc3)cnc2n1 |  |  | 0.3–1 µM
CC1(C)CCc2c(C(=O)OCc3ccccc3)c(O)c3ccccc3c2O1 | GT1b | PCR | 0.5–1 µg/mL
CC(C)C(=O)Nc1ccc(-c2cnc3nc(N)nc(N4CCOCC4)c3n2)cc1 |  |  | 1–10 µM
NC(=O)c1cnccc1Nc1nc(-c2cc(Cl)ccc2F)nc2ncccc12 |  | replicon | 0.76 µM
CCO[C@H]1C(C)=CN(c2ccc([N+](=O)[O-])cc2)[C@H](c2ccc(Cl)cc2)[C@@H]1C | 1b | replicon | 4 µM
CCCCCCCC(=O)CCCCCC/C=C/[C@H](C(=O)N[C@@H](Cc1ccc(CNC(=O)OC2c3ccccc3-c3ccccc32)cc1)C(=O)O)[C@@](O)(CC(=O)O)C(=O)O |  | replicon | 0.008 µM
CCC(NC(=O)[C@@H]1C[C@@H](OCc2ccccc2)CN1C(=O)[C@H](NC(=O)[C@H](NC(=O)c1cnccn1)C(C)C)C(C)C)C(=O)C(=O)N[C@@H](C)c1ccccc1 |  |  | 4.8 µM
COc1nc(N)nc2ncc(-c3ccc(F)cc3)nc12 |  |  | 0.3–1 µM
CNC(=O)c1cnccc1Nc1nc(-c2cc(Cl)ccc2F)nc2nc(N)ccc12 |  | replicon | >10 µM
Cc1ccc(Oc2ccc(C[C@H](NC(=O)[C@@H](/C=C/CCCCCCC(=O)CCC3CCCCC3)[C@@](O)(CC(=O)O)C(=O)O)C(=O)O)cc2)cc1 |  | replicon | 0.002 µM
CC1(C)CCc2c(C(=O)OCc3ccc([N+](=O)[O-])cc3)c(O)c3ccccc3c2O1 | GT1b | PCR | 0.5–0.8 µg/mL
Nc1ccc2c(Nc3ccncc3)nc(-c3cc(F)ccc3F)nc2n1 |  | replicon | 2.1 µM
COc1ccc(-c2nc(NC(=O)[C@H](C)c3ccc(Cl)cc3)[nH]c2C)cc1S(=O)(=O)CCO | 1a | luciferase | 1.68 µM
O=C(Cc1ccc(F)cc1)N/N=C/c1ccccc1OS(=O)(=O)c1ccc(C(F)(F)F)cc1 |  | replicon | <5 µM
COC(=O)c1cccc(Nc2s[nH]c(=O)c2C#N)c1 |  | replicon | >50 µM
NC(=S)Nc1cccc(OCc2ccccc2)c1 |  | replicon | <1 µM
COc1ccc(-c2cnc3nc(N)nc(N4CCOCC4)c3n2)cn1 |  |  | 1–10 µM
CCCCCOc1ccc(NC(N)=S)cc1 |  | replicon | <1 µM
COc1ccc(-c2nc(NC(=O)[C@@H](C)c3ccc(Cl)cc3)[nH]c2C)cc1S(C)(=O)=O | JFH-1 | luciferase | 0.194 µM
COc1cccc(CC(=O)N/N=C/c2cc(OC)ccc2OS(=O)(=O)c2ccc(C)cc2)c1 |  | replicon | <5 µM
CCCCCCCC(=O)CCCCCC/C=C/[C@H](C(=O)N[C@@H](Cc1ccc(OCCC(C)C)cc1)C(=O)O)[C@@](O)(CC(=O)O)C(=O)O |  | replicon | 0.001 µM
NC(=S)Nc1cccc(OCc2ccc(F)c(F)c2)c1 |  | replicon | <1 µM
CC1(C)CCc2c(C(=O)Oc3ccc(I)cc3)c(O)c3ccccc3c2O1 | GT1b | PCR | 5 µg/mL
N#Cc1c(Nc2ccc(Br)nc2)s[nH]c1=O |  | replicon | 10–50 µM
Nc1nc(N2CCOCC2)c2nc(-c3cccc(F)c3F)cnc2n1 |  |  | 0.3–1 µM
NC(=S)Nc1ccc(Oc2ccccc2)cc1 |  | replicon | <1 µM
O=C(N/N=C/c1ccccc1OS(=O)(=O)c1ccc(C(F)(F)F)cc1)c1cc(Cl)ccc1Cl |  | replicon | <5 µM
COC(=O)Nc1ccc(-c2cnc3nc(N)nc(N4CCOCC4)c3n2)cc1 |  |  | <3 µM
COc1ccc2c(O[C@@H]3C[C@H]4C(=O)N[C@]5(C(=O)O)C[C@H]5/C=C\CCCCC[C@H](NC(=O)OC(C)(C)C)C(=O)N4C3)cc(-c3ccccc3)nc2c1 |  | replicon | 0.077 µM
NC(=S)NCc1ccccc1 |  | replicon | <1 µM
CN(C)c1ccc(Nc2s[nH]c(=O)c2C#N)c2ccccc12 |  | replicon | >50 µM
CCCCCCCC(=O)CCCCCC/C=C/[C@H](C(=O)N[C@@H](Cc1ccc(-c2cccc(C(F)(F)F)c2)cc1)C(=O)O)[C@@](O)(CC(=O)O)C(=O)O |  | replicon | 0.002 µM
COC(=O)C1(c2ccccc2)CCN(c2cccc(NC(N)=S)c2)CC1 |  | replicon | <1 µM
COCCCNc1s[nH]c(=O)c1C#N |  | replicon | >50 µM
NC(=S)Nc1ccc(N2CCC(c3ccccc3)CC2)c(F)c1 |  | replicon | <1 µM
CCCC(NC(=O)[C@@H]1C[C@@H](OC(=O)N2CCc3ccccc3C2)CN1C(=O)[C@H](NC(=O)[C@H](NC(=O)c1cnccn1)C(C)C)C(C)C)C(=O)C(=O)N1CCC1 |  |  | 10.3 µM

The last 5 rows once more:

smiles,strain or isolate,method,result
CCCCCCCC(=O)CCCCCC/C=C/[C@H](C(=O)N[C@@H](Cc1ccc(-c2cccc(C(F)(F)F)c2)cc1)C(=O)O)[C@@](O)(CC(=O)O)C(=O)O,,replicon,0.002 µM
COC(=O)C1(c2ccccc2)CCN(c2cccc(NC(N)=S)c2)CC1,,replicon,<1 µM
COCCCNc1s[nH]c(=O)c1C#N,,replicon,>50 µM
NC(=S)Nc1ccc(N2CCC(c3ccccc3)CC2)c(F)c1,,replicon,<1 µM
CCCC(NC(=O)[C@@H]1C[C@@H](OC(=O)N2CCc3ccccc3C2)CN1C(=O)[C@H](NC(=O)[C@H](NC(=O)c1cnccn1)C(C)C)C(C)C)C(=O)C(=O)N1CCC1,,,10.3 µM

Two numbers with a dash give a range or band. ECn: concentration that inhibits the pathogen or its effect by n%. Conditions beyond the fields shown may differ between rows.